Laboratory results reported in PMC7072297, “Structural Determinants Responsible for the Preferential Insertion of Ribonucleotides by Bacterial NHEJ PolDom” (Biomolecules, 2020).

Key:
[1] = test system: Nc1nc2c(ncn2[C@@H]2O[C@H](COP(=O)(O)OP(=O)(O)OP(=O)(O)O)[C@@H](O)[C@H]2O)c(=O)[nH]1; test: purified protein; conditions: 200 nM primer/template DNA (Cy5P/T29(A)), misinsertion opposite template dA, 5 mM MnCl2, pH 7.5, 30 °C
[2] = test system: O=c1ccn([C@@H]2O[C@H](COP(=O)(O)OP(=O)(O)OP(=O)(O)O)[C@@H](O)[C@H]2O)c(=O)[nH]1; test: purified protein; conditions: 200 nM primer/template DNA (Cy5P/T29(A)), insertion opposite template dA, 5 mM MnCl2, pH 7.5, 30 °C

| Substance | Km [1] [µM] | Km [2] [µM] | kcat [1] [s⁻¹] |
| --- | --- | --- | --- |
| Pa-PolDom (Pseudomonas aeruginosa PAO1; H651A) | 2.385 ± 0.2 | 0.117 ± 0.01 |  |
| Pa-PolDom (Pseudomonas aeruginosa PAO1; S768A) | 0.89 ± 0.066 |  |  |
| Pa-PolDom (Pseudomonas aeruginosa PAO1; S768Y) | 0.865 ± 0.07 |  | 0.49 ± 0.01 |
